## Percent effect of library compounds

Measurements from “University of Dundee, Small-Polar-MMV Screening Library” (2021), ChEMBL document CHEMBL3988442.

Mtb cholesterol medium: 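Growth of Mycobacterium tuberculosis over 4 days (cholesterol / DPPC medium with tyloxapol); the read-out is not stated. Compounds at 500 µM. Higher reads as more growth inhibition (inferred: compounds with an IC50 in retests scored well above the rest). Of about 18,000 compounds tested this way, about 900 (5%) reached 50% or more in at least one test.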
Mtb glucose medium: 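Growth of Mycobacterium tuberculosis over 3 days (7H9 medium with glucose and tyloxapol); the read-out is not stated. Tested at 500 µM. Higher reads as more growth inhibition (inferred: compounds with an IC50 in retests scored well above the rest). Of about 18,000 compounds tested this way, about 1,400 (7.9%) reached 50% or more in at least one test.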

Results are given as percent effect.
The controls that fix the scale are not given in the record; negative values are as filed.
Many other results are left out here, so strong results are more common than in the screen.
A dash means the value is not listed here; it may have been measured.

compound	Mtb cholesterol medium	Mtb glucose medium
CC(C)CC(C)Oc1cc(CNS(N)(=O)=O)ccn1 (centres unmarked)	38.59%	56.82%
CCOc1ccccc1C(=O)N1CCCN(C)CC1	-	19.95%
CCCn1ncc(CN(C)CCC(=O)NC)c1C	-13.13%	-
COC(=O)NC(C)C(=O)NCCc1nccn1C (centres unmarked)	-	-2.106%
CCC1CN(C(=O)c2ccc3ccccc3n2)CCO1 (centres unmarked)	75.3%	72.88%
O=C(CC1CCCC1)NC1CCCc2[nH]c(=O)ccc21 (centres unmarked)	-	4.925%
CN(C)C1CCN(c2ncnc3c2cnn3C)CC1	-2.244%	-
CCOC(=O)C1(C)CCC(=O)NC1 (centres unmarked)	-	4.489%
Nc1[nH]nc(C(=O)N2CCCC(c3nnc[nH]3)C2)c1Cl (centres unmarked)	-	4.195%
c1cncc(CN2CCCOC(CN3CCCC3)C2)c1 (centres unmarked)	-	12.85%
Cn1nccc1C(=O)N[C@@H]1COCC[C@@H]1OCC(N)=O	-	6.299%
O=C(Nc1cc(Cl)ccc1F)C1=COCCO1	71.69%	68.53%
Brc1ccc(CN2CCNCC2)nc1	-	13.25%
NC(=O)CCN1CCCC(CO)(CC2CC2)C1 (centres unmarked)	-	-4.669%
COCCNCC(=O)Nc1cccc(CSC)c1	-	51.91%
CN(Cc1cc(C(N)=O)cs1)Cc1nccn1C	1.21%	-
CCOCC(C)Nc1ccc(C)c(S(C)(=O)=O)c1 (centres unmarked)	69.69%	43.06%
Nc1ccc(N2CCNCC2)cn1	-7.047%	-
OCc1cnn(CC(F)(F)F)c1	-	7.627%
CS(=O)(=O)NCc1ccc(CN2CCCC2=O)cc1	-	4.31%
COc1ccc(NC(=O)CC2COCCN2)c(C)c1 (centres unmarked)	-	-23.56%
CC(C)(C)C(=O)NCCC(=O)NC1CCS(=O)(=O)C1 (centres unmarked)	-	1.36%
C[S+]([O-])c1nncn1CCCOc1ccc(C#N)cc1 (centres unmarked)	-	19.55%
COc1ccc(CNCc2ccc(C(N)=O)cc2)cc1	0.9661%	-
CN(Cc1ccco1)S(=O)(=O)CCN1CCCC1	23.14%	41.98%
CC(=O)c1cccc(CN2CCCC(O)(CO)CC2)c1 (centres unmarked)	-	0.3595%
COCCNCCNC(=O)c1ccc2c(c1)nnn2C	-	-2.651%
CC(NC(=O)Cn1ccc(=O)n(C)c1=O)c1cccs1 (centres unmarked)	11.37%	1.068%
O=C1CCCCN1Cn1cc(I)cn1	50.3%	62.91%
O=C(NC1CC1)c1cc(O)nc2ccc(F)cc12	-27.53%	-
CC1CCCN(Cc2ccc(CN)cc2)C1 (centres unmarked)	-	21.18%
CC(C)(CO)NC1CC1	-	3.606%
CC(C)[C@@H](CCN)NC(=O)OC(C)(C)C	-	5.318%
COCCN(CCOC)CCOc1cccc(C#N)c1	-	29.7%
COC(=O)C1(N)CCSC1 (centres unmarked)	-	6.005%
O=C1C=CC(=O)N1c1ccccc1OC(F)F	114.3%	107.4%
OC(CN1CCn2ccnc2C1)c1cccc(F)c1 (centres unmarked)	-	50.03%
COc1ccc2c(c1)CN(C(=O)C1CCCOC1)CC2 (centres unmarked)	-	58.88%
CC(C)NC(=O)CN(C)CC(=O)NC1(C#N)CCCC1	-9.349%	-
CN(C(=O)c1cnccn1)C1(C#N)CCC1	-	9.783%
COc1cc(OC)cc(C2(F)CCNC2)c1 (centres unmarked)	11.69%	34.68%
C=C(Br)CNC(C(=O)N1CCOCC1)C(C)C (centres unmarked)	-	-3.058%
Cc1nc2ccccc2nc1SCC(=O)NCCCO	-	13.37%
CC(C)OCCCNC(=O)C1CCNC1 (centres unmarked)	-	-2.413%
O=C(Nc1cccnc1)OCC(F)(F)F	9.953%	-
CN(C)CCCNC1CCS(=O)(=O)C1 (centres unmarked)	-	-8.123%
CCCNC(=O)N1CCCC(C2OCCO2)C1 (centres unmarked)	-	5.973%
CCOCC(O)CSc1nccn1-c1cccc(F)c1 (centres unmarked)	59.79%	66.17%
Cc1ccc2nc(CCN)oc2c1	62.41%	60.65%
CC(C(=O)Nc1ccc(C(N)=O)cc1)n1cccn1 (centres unmarked)	-	5.573%
COc1ccc(NC(=O)NCc2cc[nH]n2)cc1	-	-14.13%

The last 4 entries again:

- CCOCC(O)CSc1nccn1-c1cccc(F)c1 (centres unmarked) : Mtb cholesterol medium: 59.79%; Mtb glucose medium: 66.17%
- Cc1ccc2nc(CCN)oc2c1 : Mtb cholesterol medium: 62.41%; Mtb glucose medium: 60.65%
- CC(C(=O)Nc1ccc(C(N)=O)cc1)n1cccn1 (centres unmarked) : Mtb glucose medium: 5.573%
- COc1ccc(NC(=O)NCc2cc[nH]n2)cc1 : Mtb glucose medium: -14.13%